Anti-infective test results gathered from many reports (values: NIAID ChemDB through PubChem).

Shared fields: enzyme or target tests; organism: HIV-1; target: Integrase; method: strand transfer; measure: IC50

ICn: concentration for n% inhibition. Rows are shuffled and stem from different studies.

N#Cc1c(-c2cccc([N+](=O)[O-])c2)nc(SCCc2ccccc2)[nH]c1=O ; value: 58 µM
CC(C)(C)N(Cc1ccc(F)cc1)C(=O)/C=C(\O)C(=O)O ; value: >70 µM
O=C(O)C(=O)/C=C(\O)c1cn(Cc2ccc(F)cc2)c2ccc(OCc3ccc(F)cc3)cc2c1=O ; value: 0.05 µM
COC(=O)C(=O)c1c(O)[nH]c2ccccc12 ; value: 400 µM
O=C(CCCCCNC(=O)/C(O)=C/C(=O)N(Cc1ccc(F)cc1)Cc1ccc(F)cc1)NS(=O)(=O)c1ccccc1 ; value: <70 µM
O=C1c2c(O)c(=O)n(C3CCS(=O)(=O)c4ccccc43)c(=O)n2CCN1Cc1ccc(F)cc1 ; value: <10 µM
O=C(NCc1ccc(F)cc1)c1c(O)c2nc(Cc3ccc(F)cc3)sc2n(-c2ccccc2)c1=O ; value: >4 µM
CCCC(C(=O)O)c1c(-c2ccccc2)c2cc(Cl)ccc2n(CCC)c1=O ; value: >250 µM
O=C(O)/C(O)=C/C(=O)N(CCOc1ccc(F)cc1)Cc1ccc(F)cc1 ; value: <70 µM
O=C(O)C(=O)/C=C(\O)c1cc(=O)n(Cc2ccccc2)c(=O)n1Cc1ccccc1 ; value: 2.7 µM
N#Cc1c(-c2ccccc2)nc(SCCc2ccccc2)[nH]c1=O ; value: 100 µM
O=C(O)CC(C(=O)O)c1ccc(N=Nc2c(S(=O)(=O)O)cc3cc(NC(=O)C(=O)Nc4ccc5c(O)c(N=Nc6ccc(C(CC(=O)O)C(=O)O)cc6)c(S(=O)(=O)O)cc5c4)ccc3c2O)cc1 ; value: 1 µM
COc1cc2c(c(O)c1O)C1(C)Oc3c(O)c(OC)cc(CO)c3C(C)(O1)C2=O ; value: 1.1 µM
C=CCOc1ccc(C[C@H](NC(C)=O)C(=O)N[C@@H](CCCCN)C(=O)Nc2cccc(CC(=O)OC)c2)cc1 ; value: 9 µM
O/C(=C\c1cc(CCc2ccccc2)ncn1)c1nncs1 ; value: 0.6 µg/mL
O=C1c2c(O)c(=O)n(-c3ccc(N4CCOCC4)nc3)c(=O)n2CCN1Cc1ccc(F)cc1 ; value: <10 µM
O=C(O)C(=O)/C=C(\O)c1cn(-c2ccc(C(F)(F)F)cc2)c(=O)n(-c2ccc(C(F)(F)F)cc2)c1=O ; value: 6.6 µM
C=C(C=O)[C@@H]1C[C@@]2(C)C(=CC1=O)[C@H](OC(=O)/C(C)=C\C(C)CCCC)CC[C@@H]2C(=O)O ; value: 10 µM
C=CCOc1ccc(C[C@H](NC(=O)OCc2ccccc2)C(=O)N[C@@H](CCCCN)C(=O)NCCCC(=O)OC)cc1 ; value: 2.5 µM
N#C/C(=C(/O)C(=O)O)c1cn(Cc2ccc(F)cc2)c2ccccc12 ; value: 10 µM
O=C(O)C(=O)/C=C(\O)c1cn(-c2ccccc2F)c(=O)n(-c2ccccc2F)c1=O ; value: <0.6 µM
Cc1ccc(-c2nc(SCc3ccccc3)[nH]c(=O)c2C#N)cc1 ; value: 100 µM
CCOC(=O)/C(O)=C(\C(=O)OCC)c1ccccc1 ; value: >1000 µM
Cc1ccc(-c2nc(SCCc3ccccc3)[nH]c(=O)c2C#N)cc1 ; value: 35 µM
O=C(/C=C/c1ccc(O)c2c1[C@H](C(=O)O)[C@@H](c1ccc(O)c(O)c1)O2)O[C@H](Cc1ccc(O)c(O)c1)C(=O)O ; value: 0.48 µM
Cc1ccc(-c2nc(SCc3ccc([N+](=O)[O-])cc3)[nH]c(=O)c2C#N)cc1 ; value: 35 µM
O=C(CC(=O)c1ccccc1O)c1ccccc1 ; value: 333 µM
O=C(O)C(=O)/C=C(\O)c1cn(Cc2ccccc2)c(=O)n(Cc2ccccc2)c1=O ; value: 0.2 µM
N#Cc1c(-c2ccccc2)nc(SCc2ccc([N+](=O)[O-])cc2)[nH]c1=O ; value: 100 µM
O=C(/C=C(\O)c1ccc(Cc2ccc(F)cc2)o1)c1cccs1 ; value: >100 µg/mL
CCOC(=O)c1cccc(N=Nc2c(S(=O)(=O)O)cc3cc(NC(=O)Nc4ccc5c(O)c(N=Nc6cccc(C(=O)OCC)c6)c(S(=O)(=O)O)cc5c4)ccc3c2O)c1 ; value: 4 µM
COc1c(O)c2c3c(c(O)cc(O)c3c1O)C(C)=CC2=O ; value: 10 µM
CC(C)c1c(Cc2ccccc2)n(COCc2ccccc2)c(=O)n(N)c1=O ; value: >111 µM
O=C1c2c(O)c(=O)nc(NCc3ccccc3)n2CCN1Cc1ccc(F)cc1 ; value: <10 µM
O=C(O)/C(O)=C/c1cccc(OCc2ccccc2)c1 ; value: >100 µg/mL
COc1ccc(-c2nc(SCCc3ccccc3)[nH]c(=O)c2C#N)cc1 ; value: 100 µM
COC(=O)C(=O)c1c(O)n(-c2ccccc2)c2ccccc12 ; value: 273 µM
Cc1cc(C(=O)O)ccc1N=Nc1c(S(=O)(=O)O)cc2cc(NC(=O)Nc3ccc4c(O)c(N=Nc5ccc(C(=O)O)cc5C)c(S(=O)(=O)O)cc4c3)ccc2c1O ; value: 0.7 µM
O=C(O)/C(O)=C/C(=O)N(Cc1ccc(F)cc1)Cc1ccc(Cl)cc1 ; value: <70 µM
CN1CCN(CCC2CN(Cc3ccc(F)cc3)C(=O)c3c(O)c(=O)n(C4CC4)c(=S)n32)CC1 ; value: <10 µM
COc1ccc(-c2nc(SCc3ccccc3)[nH]c(=O)c2C#N)cc1 ; value: 100 µM
CCCCC(C)C1=C(O)C(=O)C2CC(C)CC(C(=O)O)C2C1(C)C(O)CCO ; value: 20 µM
O=C1c2c(O)c(=O)n(CC3CCCN4CCCCC34)c(=O)n2CCN1Cc1ccc(F)cc1 ; value: <10 µM
O=C(Nc1ccc2c(O)c(N=Nc3cc(F)c(F)c(C(=O)O)c3F)c(S(=O)(=O)O)cc2c1)Nc1ccc2c(O)c(N=Nc3cc(F)c(F)c(C(=O)O)c3F)c(S(=O)(=O)O)cc2c1 ; value: 1 µM

6 of the rows above, restated:

structure	value
O=C(O)/C(O)=C/c1cccc(OCc2ccccc2)c1	>100 µg/mL
COC(=O)C(=O)c1c(O)[nH]c2ccccc12	400 µM
O=C(CCCCCNC(=O)/C(O)=C/C(=O)N(Cc1ccc(F)cc1)Cc1ccc(F)cc1)NS(=O)(=O)c1ccccc1	<70 µM
O=C1c2c(O)c(=O)nc(NCc3ccccc3)n2CCN1Cc1ccc(F)cc1	<10 µM
O=C(O)C(=O)/C=C(\O)c1cn(-c2ccc(C(F)(F)F)cc2)c(=O)n(-c2ccc(C(F)(F)F)cc2)c1=O	6.6 µM
COc1c(O)c2c3c(c(O)cc(O)c3c1O)C(C)=CC2=O	10 µM